{"source": "patent US20220119501A1", "about": "(INVISISHIELD TECHNOLOGIES, published 2022)", "binders": {"B1": {"name": "anti-S1 (SARS-CoV-2) scFv clone #13 (scFv)", "scFv": "QSVLTQPPSASGTPGQRVTISCSGSSSNIGSNYVYWYQQLPGTAPKLLIYRNNQRPSGVPDRFSGSKSGTSASLAISGLRSEDEADYYCAAWDDSLSGPNYVFGTGTKVTVLGSRGGGGSGGGGSGGGGSLEMAQVQLVQSGAEVKKPGSSVKVSCKASGGTFSSYAISWVRQAPGQGLEWMGWISGYNGNTNYAQKLQGRVTMTTDTSTSTAYMELRSLRSDDTAVYYCARTGWSKGEKVTTWGEWFYVDYWGQGTLVTVSSTSGQAGQ", "notes": "also called phage clone #13"}, "B2": {"name": "anti-S1 (SARS-CoV-2) scFv clone #19 (scFv)", "scFv": "QSALTQPASVSGSPGQSITISCTGTSSDVGGYNYVSWYQQHPGKVPKLMIYEVSNRPSGVSNRFSGSKSGNTASLTISGLQAEDEADYYCSSYTSGDTLVFGGGTKVTVLGSRGGGGSGGGGSGGGGSLEMAELQLVESGGGVVQPGRSPRLSCAASGFTFSNYPMHWVRQAPGKGLEWVAVISYDGNHKYYADSLEGRFSISRDNSKNTLYLQMNSLTAADTAVYYCARGGGMGGLDSWGQGTLVTVSSTSGQAGQ", "notes": "also called phage clone #19"}, "B3": {"name": "anti-S1 (SARS-CoV-2) scFv clone #20 (scFv)", "scFv": "SYVLTQPPSASGTPGQRVTISCSGSSSNIGSNTVNWYQQLPGTAPKLLIYSNNQRPSGVPDRFSASKSGTSASLAISGFQSEDEADYYCAAWDDSLDGYVFGTGTKVTVLGSRGGGGSGGGGSGGGGSLEMAEVQLVQSGAEVKKPGESLKISCKGSGYSFPSYWIGWVRQMPGKGLEWMGIIYPGDSDTRYSPSFQGQVTISADKSISTAYLQWSSLKASDTAMYYCARGSYTYMGGSYDYWGQGTLVTVSSTSGQAGQ", "notes": "also called phage clone #20"}, "B4": {"name": "anti-S1 (SARS-CoV-2) scFv clone #30 (scFv)", "scFv": "QSALTQPPSASGSPGQSVTISCTGTSSDVGGYDYVSWYQQHPGKAPKLMIYEVSKRPSGVSNRFSGSKSGNTASLTISGLQAEDEADYYCSSYTSSSTFPYVFGTGTKVTVLGSRGGGGSGGGGSGGGGSLEMAEVQLVESGGGLEQPGGSLRLSCAASGFTFSSYAMSWVRQAPGKGLEWVSAISASGNSTFYADSVKGRFTISRDNSKHTLDLQMNSLRADDTAVYYCARNSDVWGQGTLVTVSSTSGQAGQ", "notes": "also called phage clone #30"}}, "key": {"[1]": {"target": "SARS-CoV Spike/S1 Protein (SARS-CoV, UniProt P59594 14-667)"}, "[2]": {"target": "S1 subunit polypeptide of SARS-CoV-2 spike protein (isolate 2019-nCoV, WIV4) (SARS-CoV-2 (isolate 2019-nCoV, WIV4), UniProt P0DTC2 16-685)", "experiment": "phage ELISA, specificity panel (FIG. 2)"}}}
{"binder": "B1", "values": [{"measurement": "binding result", "setting": "[1]", "result": "no binding"}, {"measurement": "binding result", "setting": "[2]", "result": "binds"}]}
{"binder": "B2", "values": [{"measurement": "binding result", "setting": "[1]", "result": "no binding"}, {"measurement": "binding result", "setting": "[2]", "result": "binds"}]}
{"binder": "B3", "values": [{"measurement": "binding result", "setting": "[1]", "result": "no binding"}, {"measurement": "binding result", "setting": "[2]", "result": "binds"}]}
{"binder": "B4", "values": [{"measurement": "binding result", "setting": "[1]", "result": "no binding"}, {"measurement": "binding result", "setting": "[2]", "result": "binds"}]}
